From patent publication US11919880B2, “HCV protease inhibitors” (The Regents of the University of California, priority 2020, dated 2024)
Several values for one entry are separate records, joined by “and”; a condition that tells them apart may be missing. Identical values can stand only once.

tested on: sub-genomic HCV GT1b replicon (BM4-5 FEO), GT1b WT; test: HCV replicon assay (luciferase antiviral efficacy); assay type: cell-based, hepatitis C virus; settings: not given
Method: The 20 compounds from class C were tested […] for inhibition of viral replication (GT1b wild-type) in BM4-5 FEO cells and for mammalian cell cytotoxicity. The numbers of virus particles were evaluated by quantifying luciferase produced during the virus life cycle^41 while toxicity was evaluated using a cell viability assay. […] Prior to additional biochemical studies, several key chemical properties for each of the Class C molecules were determined.
Replicon construct. The BM4-5 replicon is a sub-genomic HCV GT1b replicon that contains adaptive mutation of serine in the NS5A region^41. The firefly luciferase gene was added into the BM4-5 replicon to generate BM4-5 FEO replicon. The construction procedures have been previously described^42.
Luciferase antiviral efficacy and cells viability assays. BM4-5 FEO replicon approximately 10,000 cells in 100 μL of medium were seeded into 96-well plates and incubate for 6 h for attachment. Then, the compounds were added at to the wells in specific concentration and incubate for 48 h. The luciferase assay (Bright-Glo; Promega) was carried out according to the manufacturer's instructions. Luciferase activity was determined using a microplate luminometer (Veritas microplate luminometer; Turner Biosystems). For cells viability assays, BM4-5 FEO at the density 10,000 cells in 100 μL medium was incubated at 37° C. for 6 h for attachment, then the compounds were added and incubated for another 48 hours. The number of living cells were measured by Cell Titer-blue assay (Promega). The fluorescence absorption (560Ex/590Em) for 96-well plate was read by Benchmark Scientific MR9600 with. The activity and toxicity of each compound were measured by at least six different concentrations in triplicate.

Row | SMILES | Therapeutic Index
1 | COc1ccc(OC)c(NC(=O)NC(Cc2c[nH]c3ccccc23)C(=O)NCCCN2CCCCC2C)c1 (stereo not drawn) [Compound 9] | >1.95

same assay, conditions: ratio of LC50/EC50

Row | SMILES | Therapeutic Index
2 | CC1CCCC(C)N1NCCCNC(=O)C(Cc1c[nH]c2ccccc12)NC(=O)Nc1ccccc1Br (stereo not drawn) [Compound 14] | 17.94
3 | Cc1ccc2[nH]cc(CC(NC(=O)Nc3cc(Cl)ccc3Cl)C(=O)NCCCN3CCCCC3C)c2c1 (stereo not drawn) [Compound 7] | 5.62
4 | CC1CCCCN1CCCNC(=O)C(Cc1c[nH]c2ccc(F)cc12)NC(=O)Nc1cc(Cl)ccc1Cl (stereo not drawn) [Compound 2] | 1.13
5 | CC1CCCCN1CCCNC(=O)C(Cc1c[nH]c2ccccc12)NC(=O)Nc1c(F)cc(Br)cc1F (stereo not drawn) [Compound 13] | 0.34
6 | CC(C)c1ccc(NC(=O)N[C@@H](Cc2c[nH]c3ccccc23)C(=O)NCCCN2CCCCC2)cc1 [Compound 22] | 73.4 and 73.39
7 | O=C(Nc1cccc(Br)c1)N[C@@H](Cc1c[nH]c2ccccc12)C(=O)NCCCN1CCCCC1 [Compound 21] | 22.72
8 | O=C(Nc1ccccc1Br)NC(Cc1c[nH]c2ccccc12)C(=O)NCCCNC1CCCCC1O (stereo not drawn) [Compound 18] | 8.11
9 | O=C(Nc1ccccc1Br)NC(Cc1c[nH]c2ccccc12)C(=O)NCCCNC1CC2CCC1C2 (stereo not drawn) [Compound 11] | 1.11
10 | O=C(Nc1cccc(Br)c1)NC(Cc1c[nH]c2ccccc12)C(=O)NCCCNC1CCCCCC1 (stereo not drawn) [Compound 15] | 3.64
11 | CCOC(=O)C1CCCCN1CCCNC(=O)C(Cc1c[nH]c2ccccc12)NC(=O)Nc1ccccc1Br (stereo not drawn) [Compound 17] | 0.91
12 | O=C(Nc1ccccc1Br)NC(Cc1c[nH]c2ccccc12)C(=O)NCCCNC1CCC(O)CC1 (stereo not drawn) [Compound 19] | >3.06
13 | CC1CCCCN1CCCNC(=O)C(Cc1c[nH]c2ccccc12)NC(=O)Nc1ccc(N(C)C)cc1 (stereo not drawn) [Compound 6] | >1.58
14 | COc1ccc2[nH]cc(CC(NC(=O)Nc3cc(Cl)ccc3Cl)C(=O)NCCCN3CCCCC3C)c2c1 (stereo not drawn) [Compound 10] | >3.03
15 | CC(=O)c1cccc(NC(=O)NC(Cc2c[nH]c3ccccc23)C(=O)NCCCN2CCCCC2C)c1 (stereo not drawn) [Compound 8] | >9.16
